Results reported in paper PMC8480776, “Selenium Derivatives as Promising Therapy for Chagas Disease: In Vitro and In Vivo Studies” (ACS Infectious Diseases, 2021).

How the values were obtained:
[1] = system: T. cruzi epimastigotes, Tulahuen strain; experiment: Screening against extracellular epimastigotes, Tulahuen strain; assay type: cell-based, Trypanosoma cruzi; conditions: read-out: Activity IC50, epimastigote form, Tulahuen strain; 48 h + 24 h resazurin
Vero cells = experiment: Cytotoxicity test on Vero cells; assay type: cell-based; conditions: read-out: Toxicity IC50 Vero cell; 48 h + 24 h resazurin
[2] = system: T. cruzi epimastigotes, SN3 strain; experiment: Screening against extracellular epimastigotes, SN3 strain; assay type: cell-based, Trypanosoma cruzi; conditions: read-out: Activity IC50, epimastigote form, SN3 strain; 48 h + 24 h resazurin
[3] = system: T. cruzi epimastigotes, Arequipa strain; experiment: Screening against extracellular epimastigotes, Arequipa strain; assay type: cell-based, Trypanosoma cruzi; conditions: read-out: Activity IC50, epimastigote form, Arequipa strain; 48 h + 24 h resazurin

| Compound | IC50 [1] [µM] | IC50 (Vero cells) [µM] | IC50 [2] [µM] | IC50 [3] [µM] |
| --- | --- | --- | --- | --- |
| COP(=S)(Nc1ccc([Se]C#N)cc1)OC | 41.5 | < 50 | 30.5 | 38.2 |
| CCOP(=S)(Nc1ccc([Se]C#N)cc1)OCC | > 50 | < 50 | > 50 | 38.9 |
